Source: paper PMC6684085, “Intragenic antimicrobial peptides (IAPs) from human proteins with potent antimicrobial and anti-inflammatory activity” (PLoS ONE, 2019)
Ends that are not written are not given here.

Experiment: Far-UV circular dichroism, percent helicity
Type: physicochemical
Settings: CD, room temperature, [θ]222, method of Chen et al.; for % Helicity Buffer: 40 μM peptide in phosphate buffer

## LFNNYITAALKLLEKLYKV-NH2 [Hs04]
  % Helicity Buffer: 35.6%
Listed as 04
  % Helicity Buffer: ~30%
40 μM peptide, 50-fold molar excess (2 mM) 2:1 DMPC:DMPG LUVs
  % Helicity 2:1 DMPC:PG: 91.3%
40 μM peptide, 50-fold molar excess (2 mM) DMPC LUVs
  %Helicity DMPC: 50.8%
